Compound potency records, mixed from different reports. Data source: NIAID ChemDB in PubChem.

Common to all: growth or infection tests; species: Mycobacterium fortuitum

ECn is the concentration giving n% inhibition of infection, replication or growth.

smiles	strain or isolate	method	endpoint	value
NC[C@@H]1O[C@H](O[C@H]2[C@@H](O)[C@H](O[C@@H]3[C@@H](O)[C@H](N)C[C@H](N)[C@H]3O[C@H]3O[C@H](CN)[C@@H](O)[C@H](O)[C@H]3N)O[C@@H]2CO)[C@H](N)[C@@H](O)[C@@H]1O	31 isolates		MBC90	>64 µg/mL
CO[C@@]1(NC(=O)Cn2cnnn2)C(=O)N2C(C(=O)O)=C(CSc3nnc(C)s3)CSC21	1263		MIC	100 µg/mL
CC1CN(c2cc3c(cc2F)c(=O)c(C(=O)O)cn3-c2ccc(F)cc2F)CCN1	ATCC 6841		MBC	8 µg/mL
CN[C@@H]1[C@H](O[C@H]2[C@H](O[C@H]3[C@H](O)[C@@H](O)[C@H](N=C(N)N)[C@@H](O)[C@@H]3N=C(N)N)O[C@@H](C)[C@]2(O)C=O)O[C@@H](CO)[C@H](O)[C@H]1O	31 isolates		MIC50	>64 µg/mL
CO[C@@]1(NC(=O)C2SC(=C(C(N)=O)C(=O)[O-])S2)C(=O)N2C(C(=O)[O-])=C(CSc3nnnn3C)CS[C@@H]21	1047		MIC	50 µg/mL
CC1COc2c(N3CCN(C)CC3)c(F)cc3c(=O)c(C(=O)O)cn1c23	25 isolates		MBC90	>4 µg/mL
COc1ccc(/C=N/n2cnc3onc(C)c3c2=O)cc1	PCM 672	resazurin	MIC90	>100 µg/mL
CCc1cc(C(N)=S)ccn1	198 strains	agar	EC50	>5 µg/mL
CO[C@@]1(NC(=O)CCCC(N)C(=O)O)C(=O)N2C(C(=O)O)=C(COC(N)=O)CSC21	1049		MIC	>100 µg/mL
CC(C)N=c1cc2n(-c3ccc(Cl)cc3)c3ccccc3nc-2cc1Nc1ccc(Cl)cc1	6842 ATCC		MIC	13.3 µg/mL
NC[C@H]1O[C@H](O[C@H]2[C@H](O)[C@@H](O[C@H]3O[C@H](CO)[C@@H](O)[C@H](N)[C@H]3O)[C@H](N)C[C@@H]2N)[C@H](N)C[C@@H]1O	ATCC 6841		MBC	>64 µg/mL
CO[C@@]1(NC(=O)CSCC#N)C(=O)N2C(C(=O)O)=C(CSc3nnnn3C)CS[C@@H]21	1047		MIC	12.5 µg/mL
CC[C@H]1OC(=O)[C@H](C)[C@@H](O[C@H]2C[C@@](C)(OC)[C@@H](O)[C@H](C)O2)[C@H](C)[C@@H](O[C@@H]2O[C@H](C)C[C@H](N(C)C)[C@H]2O)[C@](C)(O)C[C@@H](C)C(=O)[C@H](C)[C@@H](O)[C@]1(C)O	ATCC 6841		MBC	>8 µg/mL
Cc1ccc(/C=N/NC(=O)c2c(C)noc2N)cc1	PCM 672	resazurin	MIC90	>100 µg/mL
CC[C@H]1OC(=O)[C@H](C)[C@@H](O[C@H]2C[C@@](C)(OC)[C@@H](O)[C@H](C)O2)[C@H](C)[C@@H](O[C@@H]2O[C@H](C)C[C@H](N(C)C)[C@H]2O)[C@](C)(O)C[C@@H](C)CN(C)[C@H](C)[C@@H](O)[C@]1(C)O	25 isolates		MIC50	>8 µg/mL
Cc1noc2nc(C)n(/N=C/c3ccc(Cl)c(Cl)c3)c(=O)c12	PCM 672	resazurin	MIC90	>100 µg/mL
CC1COc2c(N3CCN(C)CC3)c(F)cc3c(=O)c(C(=O)O)cn1c23	20 strains		MIC50	1.56 µg/mL
CO[C@@]1(NC(=O)Cc2cccs2)C(=O)N2C(C(=O)O)=C(COC(N)=O)CS[C@@H]21	1261		MIC	12.5 µg/mL
Cc1noc2ncn(/N=C/c3ccncc3)c(=O)c12	PCM 672	resazurin	MIC90	>100 µg/mL

Neighbouring rows are from separate reports. Blank or dashed fields: not listed here. A number after MIC or MFC names an inhibition level or a share of isolates.